# Positions that govern dimerization of the HIV-1 5' RNA

RNA: 5' end of the HIV-1 NL4-3 genome, made in vitro. Positions 1-437 read:
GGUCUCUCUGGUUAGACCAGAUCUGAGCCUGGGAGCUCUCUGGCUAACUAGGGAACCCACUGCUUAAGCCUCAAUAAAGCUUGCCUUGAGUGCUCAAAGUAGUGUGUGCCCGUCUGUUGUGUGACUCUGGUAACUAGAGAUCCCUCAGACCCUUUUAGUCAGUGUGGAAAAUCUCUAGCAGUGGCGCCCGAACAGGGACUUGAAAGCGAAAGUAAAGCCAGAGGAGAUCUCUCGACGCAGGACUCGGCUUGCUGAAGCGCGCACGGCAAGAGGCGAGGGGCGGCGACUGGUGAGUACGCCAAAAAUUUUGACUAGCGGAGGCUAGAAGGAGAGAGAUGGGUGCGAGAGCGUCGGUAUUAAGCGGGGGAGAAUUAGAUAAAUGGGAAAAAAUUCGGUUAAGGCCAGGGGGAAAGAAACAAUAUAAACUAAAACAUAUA

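Mutant RNA libraries with 1G, 2G or 3G starts, with or without cap, were folded at 37 °C for 30 min. Monomer and dimer bands were cut from native gels after folding in high salt (300 mM KCl, 5 mM MgCl2) or low salt (40 mM KCl, 0.1 mM MgCl2). Kdimer compares mutation frequencies in monomer and dimer, corrected for sequencing errors.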

Scale: median log2 Kdimer over the changes at a position; positive = changes inhibit dimerization, negative = changes enhance it.
One numbering serves 1G, 2G and 3G.
A position is written with its base.

{"position": "C233", "2G capped high-salt": 0.54, "2G capped low-salt": 0.48, "2G uncapped high-salt": 0.80, "2G uncapped low-salt": 0.85}
{"position": "G234", "2G capped high-salt": 0.81, "2G capped low-salt": -0.05, "2G uncapped high-salt": 0.52, "2G uncapped low-salt": 0.00}
{"position": "A235", "2G capped high-salt": -0.74, "2G capped low-salt": -1.31, "2G uncapped high-salt": -0.52, "2G uncapped low-salt": -1.30}
{"position": "C236", "2G capped high-salt": 2.63, "2G capped low-salt": 1.52, "2G uncapped high-salt": 2.73, "2G uncapped low-salt": 1.61}
{"position": "G237", "2G capped high-salt": 1.11, "2G capped low-salt": 0.70, "2G uncapped high-salt": 0.72, "2G uncapped low-salt": 0.78}
{"position": "C238", "2G capped high-salt": 2.86, "2G capped low-salt": 1.72, "2G uncapped high-salt": 2.76, "2G uncapped low-salt": 1.81}
{"position": "A239", "2G capped high-salt": -0.18, "2G capped low-salt": -0.31, "2G uncapped high-salt": -0.06, "2G uncapped low-salt": -0.32}
{"position": "G240", "2G capped high-salt": -0.21, "2G capped low-salt": -0.10, "2G uncapped high-salt": -0.11, "2G uncapped low-salt": -0.12}
{"position": "G241", "2G capped high-salt": -0.09, "2G capped low-salt": -0.18, "2G uncapped high-salt": -0.03, "2G uncapped low-salt": -0.53}
{"position": "A242", "2G capped high-salt": 0.72, "2G capped low-salt": 1.65, "2G uncapped high-salt": 0.98, "2G uncapped low-salt": 1.96}
{"position": "C243", "2G capped high-salt": 0.74, "2G capped low-salt": 1.12, "2G uncapped high-salt": 1.05, "2G uncapped low-salt": 1.07}
{"position": "U244", "2G capped high-salt": 0.57, "2G capped low-salt": 1.42, "2G uncapped high-salt": 0.89, "2G uncapped low-salt": 2.00}
{"position": "C245", "2G capped high-salt": 1.24, "2G capped low-salt": 1.63, "2G uncapped high-salt": 1.26, "2G uncapped low-salt": 1.79}
{"position": "G246", "2G capped high-salt": 1.08, "2G capped low-salt": 1.90, "2G uncapped high-salt": 1.40, "2G uncapped low-salt": 2.02}
{"position": "G247", "2G capped high-salt": -0.65, "2G capped low-salt": -1.10, "2G uncapped high-salt": -0.52, "2G uncapped low-salt": -1.28}
{"position": "C248", "2G capped high-salt": 0.55, "2G capped low-salt": 0.53, "2G uncapped high-salt": 0.75, "2G uncapped low-salt": 0.61}
{"position": "U249", "2G capped high-salt": 1.18, "2G capped low-salt": 1.77, "2G uncapped high-salt": 1.55, "2G uncapped low-salt": 1.94}
{"position": "U250", "2G capped high-salt": 2.62, "2G capped low-salt": 2.73, "2G uncapped high-salt": 2.77, "2G uncapped low-salt": 2.90}
{"position": "G251", "2G capped high-salt": 3.82, "2G capped low-salt": 2.80, "2G uncapped high-salt": 5.73, "2G uncapped low-salt": 6.08}
{"position": "C252", "2G capped high-salt": 3.30, "2G capped low-salt": 3.02, "2G uncapped high-salt": 4.55, "2G uncapped low-salt": 3.12}
{"position": "U253", "2G capped high-salt": 1.93, "2G capped low-salt": 2.13, "2G uncapped high-salt": 2.34, "2G uncapped low-salt": 2.55}
{"position": "G254", "2G capped high-salt": 2.43, "2G capped low-salt": 2.27, "2G uncapped high-salt": 2.14, "2G uncapped low-salt": 2.17}
{"position": "A255", "2G capped high-salt": -0.06, "2G capped low-salt": -0.32, "2G uncapped high-salt": -0.13, "2G uncapped low-salt": -0.32}
{"position": "A256", "2G capped high-salt": 1.04, "2G capped low-salt": 2.05, "2G uncapped high-salt": 0.93, "2G uncapped low-salt": 1.85}
{"position": "G257", "2G capped high-salt": 3.47, "2G capped low-salt": 3.25, "2G uncapped high-salt": 2.95, "2G uncapped low-salt": 1.07}
{"position": "C258", "2G capped high-salt": 4.80, "2G capped low-salt": 3.18, "2G uncapped high-salt": 4.62, "2G uncapped low-salt": 3.55}
{"position": "G259", "2G capped high-salt": 4.71, "2G capped low-salt": 3.18, "2G uncapped high-salt": 7.18, "2G uncapped low-salt": 3.82}

From the data files of Ye et al. 2022, doi:10.1038/s41594-022-00746-2.